# Data taken from patent US11926642B2, “Compounds and methods for the treatment of COVID-19” (priority 2020, dated 2024).
# Test: 24 hour continuous IV infusion GLP study in rats
smiles,measurement,value
COc1cccc2[nH]c(C(=O)N[C@@H](CC(C)C)C(=O)N[C@@H](C[C@@H]3CCNC3=O)C(=O)COP(=O)(O)O)cc12 [Example 49],neurological safety pharmacology (functional observation battery),no effects on neurological safety pharmacology parameters
